Measurements reported in PubChem BioAssay AID1259414 (Drosophila RNAi Screening Center, 2018).
Aim: 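Fly genes that alter Wolbachia amount inside host cells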 (primary screen). System: Drosophila JW18 cells infected with Wolbachia. Reagent: long dsRNA against Drosophila genes, 0.25 µg dsRNA per well of a 384-well plate. Time to read-out: 5 days. Challenge: cells persistently infected with Wolbachia before knock-down; no added drug. Measured: 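Automated imaging of bacterial rRNA staining divided by host cell count, reported as plate-normalised robust z-score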. Scale: Wolbachia per cell robust z: higher = more Wolbachia per host cell than the plate typical. Rule for the call: 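Active if absolute robust z reaches 1.5 in two or more of three replicates, leaving out multi- or no-target dsRNAs, genes unexpressed in JW18 and A1 wells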.
The screen tested about 24,000 reagents; this is an unselected part of those that have a named target and a result. Of all reagents, about 1,210 (5%) were called active. 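Inactive calls also include excluded dsRNAs with several or no targets, genes unexpressed in JW18, and well A1, regardless of score.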 The numbers tell different reagents against one gene apart. Names joined by + are all predicted targets of the reagent. Reagent sequences are not shown.

Against Hexim (Hexamethylene bisacetamide inducible), the entry reads Wolbachia per cell robust z, rep 1 = -0.178; Wolbachia per cell robust z, rep 2 = 0.0753; Wolbachia per cell robust z, rep 3 = 0.0832; inactive.
Against CG9391 the deposit lists Wolbachia per cell robust z, rep 1 = -0.493; Wolbachia per cell robust z, rep 2 = 0.353; Wolbachia per cell robust z, rep 3 = -2.09; inactive.
CG42362 + CG42363 showed Wolbachia per cell robust z, rep 1 = 1.27; Wolbachia per cell robust z, rep 2 = 0.101; Wolbachia per cell robust z, rep 3 = -0.226; inactive.
mEFTs (mitochondrial translation elongation factor Ts) #1 gave Wolbachia per cell robust z, rep 1 = -0.133; Wolbachia per cell robust z, rep 2 = -0.903; Wolbachia per cell robust z, rep 3 = -1.45; inactive.
Against mEFTs (mitochondrial translation elongation factor Ts) #2 the deposit lists Wolbachia per cell robust z, rep 1 = -1.89; Wolbachia per cell robust z, rep 2 = -0.109; Wolbachia per cell robust z, rep 3 = 0.415; inactive.
For Tfb4 (Transcription factor B4) #1, the entry reads Wolbachia per cell robust z, rep 1 = -0.578; Wolbachia per cell robust z, rep 2 = 1.69; Wolbachia per cell robust z, rep 3 = 0.167; inactive.
Tfb4 (Transcription factor B4) #2 gave Wolbachia per cell robust z, rep 1 = -0.431; Wolbachia per cell robust z, rep 2 = -1.01; Wolbachia per cell robust z, rep 3 = 0.112; inactive.
Depletion of CG7101 #1 gave: Wolbachia per cell robust z, rep 1 = -0.498; Wolbachia per cell robust z, rep 2 = -0.127; Wolbachia per cell robust z, rep 3 = 2.57; inactive.
CG7101 #2 gave Wolbachia per cell robust z, rep 1 = -0.0553; Wolbachia per cell robust z, rep 2 = -1.08; Wolbachia per cell robust z, rep 3 = -0.218; inactive.
With knock-down of CG13708, the record shows Wolbachia per cell robust z, rep 1 = 1.2; Wolbachia per cell robust z, rep 2 = 1.02; Wolbachia per cell robust z, rep 3 = 0.998; inactive.

Reformatted: entries from further up
Gene | reagent | Wolbachia per cell robust z, rep 1 | Wolbachia per cell robust z, rep 2 | Wolbachia per cell robust z, rep 3 | call
CG9391 | 1 | -0.493 | 0.353 | -2.09 | inactive
CG42362 + CG42363 | 1 | 1.27 | 0.101 | -0.226 | inactive

The results go on.
Silencing of Srp72 (Signal recognition particle 72) #1 gave: Wolbachia per cell robust z, rep 1 = -0.648; Wolbachia per cell robust z, rep 2 = -0.148; Wolbachia per cell robust z, rep 3 = -0.294; inactive.
Silencing of Srp72 (Signal recognition particle 72) #2 came out at: Wolbachia per cell robust z, rep 1 = -1.64; Wolbachia per cell robust z, rep 2 = -1.25; Wolbachia per cell robust z, rep 3 = -1.57; active.
With knock-down of Grl65a (Gustatory receptor-like 65a) #1 the results were Wolbachia per cell robust z, rep 1 = 0.937; Wolbachia per cell robust z, rep 2 = 0.693; Wolbachia per cell robust z, rep 3 = 0.49; inactive.
Depletion of Grl65a (Gustatory receptor-like 65a) #2 came out at: Wolbachia per cell robust z, rep 1 = -0.0121; Wolbachia per cell robust z, rep 2 = -0.826; Wolbachia per cell robust z, rep 3 = -0.862; inactive.
Silencing of CG15140 came out at: Wolbachia per cell robust z, rep 1 = -1.73; Wolbachia per cell robust z, rep 2 = -1.89; Wolbachia per cell robust z, rep 3 = -0.191; inactive.
trol (terribly reduced optic lobes) #1 scored Wolbachia per cell robust z, rep 1 = -1.18; Wolbachia per cell robust z, rep 2 = -0.591; Wolbachia per cell robust z, rep 3 = 0.354; inactive.
Against trol (terribly reduced optic lobes) #2 the deposit lists Wolbachia per cell robust z, rep 1 = -0.524; Wolbachia per cell robust z, rep 2 = 0.305; Wolbachia per cell robust z, rep 3 = 0.33; inactive.
trol (terribly reduced optic lobes) #3 scored Wolbachia per cell robust z, rep 1 = 0.787; Wolbachia per cell robust z, rep 2 = 0.785; Wolbachia per cell robust z, rep 3 = 0.67; inactive.
trol (terribly reduced optic lobes) #4 gave Wolbachia per cell robust z, rep 1 = -0.0661; Wolbachia per cell robust z, rep 2 = -1.88; Wolbachia per cell robust z, rep 3 = -0.0832; inactive.
After knock-down of side-IV + asRNA:CR17025 the results were Wolbachia per cell robust z, rep 1 = -2.22; Wolbachia per cell robust z, rep 2 = -3.43; Wolbachia per cell robust z, rep 3 = -3.15; inactive.
GluRIID (Glutamate receptor IID) #1 showed Wolbachia per cell robust z, rep 1 = 0.346; Wolbachia per cell robust z, rep 2 = 0.796; Wolbachia per cell robust z, rep 3 = 0.489; inactive.
GluRIID (Glutamate receptor IID) #2 scored Wolbachia per cell robust z, rep 1 = 0.305; Wolbachia per cell robust z, rep 2 = 0.676; Wolbachia per cell robust z, rep 3 = 0.00617; inactive.
CR9337 (pseudo) #1 gave Wolbachia per cell robust z, rep 1 = 0.619; Wolbachia per cell robust z, rep 2 = 1.14; Wolbachia per cell robust z, rep 3 = 0.412; inactive.
Against CR9337 (pseudo) #2 the deposit lists Wolbachia per cell robust z, rep 1 = -0.553; Wolbachia per cell robust z, rep 2 = -0.0298; Wolbachia per cell robust z, rep 3 = 0.832; inactive.
CG6329 scored Wolbachia per cell robust z, rep 1 = -0.419; Wolbachia per cell robust z, rep 2 = 1.28; Wolbachia per cell robust z, rep 3 = 0.67; inactive.
Depletion of CG13364 #1 came out at: Wolbachia per cell robust z, rep 1 = -0.125; Wolbachia per cell robust z, rep 2 = 1.03; Wolbachia per cell robust z, rep 3 = -0.197; inactive.
After knock-down of CG13364 #2, the record shows Wolbachia per cell robust z, rep 1 = 0.626; Wolbachia per cell robust z, rep 2 = 1.03; Wolbachia per cell robust z, rep 3 = -0.411; inactive.
Knock-down of CG13364 #3 came out at: Wolbachia per cell robust z, rep 1 = 0.281; Wolbachia per cell robust z, rep 2 = -2.38; Wolbachia per cell robust z, rep 3 = -1.78; active.
For CG12341, the values are Wolbachia per cell robust z, rep 1 = -0.86; Wolbachia per cell robust z, rep 2 = -0.697; Wolbachia per cell robust z, rep 3 = 0.161; inactive.
With knock-down of Nadk1b (NAD kinase 1b) #1, the record shows Wolbachia per cell robust z, rep 1 = -0.788; Wolbachia per cell robust z, rep 2 = -1.02; Wolbachia per cell robust z, rep 3 = -2.77; inactive.
Against Nadk1b (NAD kinase 1b) #2, the entry reads Wolbachia per cell robust z, rep 1 = 1.18; Wolbachia per cell robust z, rep 2 = -0.444; Wolbachia per cell robust z, rep 3 = 0.537; inactive.
Nadk1b (NAD kinase 1b) #3 scored Wolbachia per cell robust z, rep 1 = -1.64; Wolbachia per cell robust z, rep 2 = -0.233; Wolbachia per cell robust z, rep 3 = -1.02; inactive.
